Anti-infective test results gathered from many reports (values: NIAID ChemDB through PubChem).

Common to all: whole-cell or culture tests; agent: Mycobacterium tuberculosis

A number after MIC or MFC names an inhibition level or a share of isolates. ECn: concentration that inhibits the pathogen or its effect by n%. Lines come from different laboratories, so protocols vary. MIC bound: limit read from a one-dose screen. Two numbers with a dash give a range or band. Percent inhibition refers to the dose given; in toxicity tests it is the harm to the cells. An empty or dashed field is not shown.

compound	method	strain	dose	measure	mutations	value
c1ccc(CN[C@]23C4C5CC6C7C5C2C7[C@@](NCc2ccccc2)(C64)N3Cc2ccccc2)cc1	resazurin	H37Rv		MIC bound		>6.25 µg/mL
c1ccc2c(c1)n1[se]n21		H37Rv		MIC		457.5 µg/mL
CCC(=O)NNC(=O)c1ccncc1		H37Rv		MIC		400 µg/mL
Cc1ccc(-n2c(=S)oc3ccc(Cl)cc3c2=S)cc1		My 331/88		MIC		0.5 µM
O=C(N/N=C(\COc1ccc(Cl)cc1)N=Cc1ccncc1)c1ccncc1		INH-r		MIC		50 µg/mL
O=[N+]([O-])c1ccc(-n2cc([N+](=O)[O-])cn2)cc1		H37Rv	6.25 µg/mL	inhibition		11%
CC(C)c1ccc(C2=NO[C@]3(O2)/C(=C/c2cccc4ccccc24)CN([C@H](C)c2ccccc2)C[C@@]32ON=C(c3ccc(C(C)C)cc3)[C@@H]2c2cccc3ccccc23)cc1		H37Rv		MIC		15.59 µM
CO[C@H]1/C=C/O[C@@]2(C)Oc3c(C)c(O)c4c(O)c(c(/C=N/N=C/N5CCCCC5)c(O)c4c3C2=O)NC(=O)/C(C)=C\C=C\[C@H](C)[C@H](O)[C@@H](C)[C@@H](O)[C@@H](C)[C@H](OC(C)=O)[C@@H]1C		isolates 2		MIC		>200 µg/mL
CC1(C)[C@H]2CC[C@]1(C)[C@H](OC(=O)/C=C/C=C/c1ccc3c(c1)OCO3)C2		H37Ra		MIC		25 µg/mL
Nc1ccc2c(-c3ccccc3)cc(=O)[nH]c2n1		H37Rv	12.5 µg/mL	inhibition		0%
CC1=Nc2cc(Cl)c(Cl)cc2N(C)C1=CC1=C(Cl)C(=O)c2ccccc2C1=O	resazurin	H37Rv		MIC bound		>6.25 µg/mL
COc1ccc(-c2nc3sc(C)nn3c2COCc2cn(C#N)nn2)cc1	agar	H37Rv		MIC		50 µg/mL
O=[N+]([O-])c1ccc(-n2cnc([N+](=O)[O-])n2)cc1		H37Rv		MIC		>6.25 µg/mL
O=c1oc2ccc(Cl)cc2c(=O)n1-c1ccccc1		My 331/88		MIC		31 µM
O=C1C(Nc2ccccc2)=CC(c2ccccc2)N1c1ccccc1	BACTEC	H37Rv		MIC bound		>12.5 µg/mL
Cc1ccc(-c2nc3sc(C)nn3c2COCc2cn(-c3ccccc3F)nn2)cc1	agar	H37Rv		MIC		50 µg/mL
CC1(C)NC(=O)C(C)(C)NC1=O	BACTEC	H37Rv		MIC		≥12.5 µg/mL
S=c1oc2ccc(Cl)cc2c(=S)n1-c1ccccc1		My 331/88		MIC		1 µM
COC(=O)C1(C)CCc2c(OC)ccc(OC)c2C1=O	BACTEC	H37Rv		MIC bound		>12.5 µg/mL
CO[C@H]1/C=C/O[C@@]2(C)Oc3c(C)c(O)c4c(O)c(c(N5CCN(Cc6c(C)cc(C)cc6C)CC5)c(O)c4c3C2=O)NC(=O)/C(C)=C\C=C\[C@H](C)[C@H](O)[C@@H](C)[C@@H](O)[C@@H](C)[C@H](OC(C)=O)[C@@H]1C		131-4		MBC		0.06 µg/mL
O=C(N/N=C/c1cc2cc(F)ccc2[nH]c1=O)c1ccncc1	resazurin / visual reading	H37Rv		MIC		25 µg/mL
O=C1C(=O)c2ccccc2C(O)=C1C(C1=C(O)c2ccccc2C(=O)C1=O)c1ccccc1	BACTEC	H37Rv		MIC		≥12.8 µg/mL
O=C(Nc1ccccc1)C(=O)Nc1ccccc1				MIC		330 µM
C[C@H](c1ccccc1)N1C/C(=C\c2ccccc2)[C@@]2(ON=C(c3ccc(Cl)cc3)O2)[C@@]2(C1)ON=C(c1ccc(Cl)cc1)[C@@H]2c1ccccc1		H37Rv		MIC		4.56 µM
S=c1oc2ccc(Cl)cc2c(=S)n1-c1ccc(Cl)c(Cl)c1		My 331/88		MIC		2 µM
[2H]C([2H])([2H])OC(=O)N/C=C/CCCc1cc(O)c(C(=O)/C(C)=C/c2cnc(Oc3ccc(F)cc3)s2)c(=O)o1	fluorescence	H37Rv		MIC		0.4 µg/mL
COc1ccc(N2CCN(c3nc4c(s3)c3c(O)c5c(O)c(C)c6c(c54)C(=O)[C@@](C)(O/C=C/[C@H](OC)[C@@H](C)[C@@H](OC(C)=O)[C@H](C)[C@H](O)[C@H](C)[C@@H](O)[C@@H](C)/C=C/C=C(/C)C(=O)N3)O6)CC2)cc1		H37Rv		MIC		0.15 µg/mL
O=c1oc2ccc(Cl)cc2c(=O)n1-c1cccc(Cl)c1		My 331/88		MIC		16 µM
CC(=O)O[C@@]12CO[C@@H]1C[C@H](O)[C@@]1(C)C(=O)[C@H](OC(=O)N(C)C)C3=C(C)[C@@H](OC(=O)/C=C/c4ccc5ccccc5c4)C[C@@](O)([C@@H](OC(=O)c4ccccc4)[C@H]21)C3(C)C	PCR	IMCJ946.K2		MIC		1.25 µM
CCOC(=O)NC(C(=O)OCC)(N1CCN(c2cc3c(cc2F)c(=O)c(C(=O)O)cn3CC)CC1)C(F)(F)F	resazurin	H37Rv		MIC		6.25 µg/mL
CO[C@H]1/C=C/O[C@@]2(C)Oc3c(C)c(O)c4c(O)c(c5c(c4c3C2=O)NC2(CCN(CC(C)C)CC2)N=5)=NC(=O)/C(C)=C\C=C\[C@H](C)[C@H](O)[C@@H](C)[C@@H](O)[C@@H](C)[C@H](OC(C)=O)[C@@H]1C		Rifampicin-resistant strains		MIC		0.25–0.5 µg/mL
O=c1oc2ccc(Cl)cc2c(=S)n1-c1cccc(Cl)c1		My 331/88		MIC		1 µM
Clc1ccc2c(-c3ccccc3)cc(Cl)nc2n1		H37Rv		EC50		>12.5 µg/mL
CCCCCNNC(=O)c1ccncc1		H37Rv		MIC		5 µg/mL
Nc1ccc(C(=O)O)c(O)c1				MIC		1.5 µg/mL
CC1CCC2(O)C3(C)CC4(O)OC2(C1O)C1(O)C3(O)C(OC(=O)c2ccc[nH]2)C(O)(C(C)C)C41C	BACTEC	H37Rv		MIC bound		>12.8 µg/mL
NNC(=O)c1ccncc1				MIC		4 µM
Cc1nc(NCCNCCO)nc2c1C(=O)Nc1ccccc1N2	resazurin	H37Rv		MIC bound		>6.25 µg/mL
O=c1oc2ccc(Cl)cc2c(=O)n1-c1ccc(Cl)c(Cl)c1		My 331/88		MIC		4 µM
CCCCCN(CCCCC)CCCNc1ccc(C)c2sc3ccccc3c(=O)c12	BACTEC	H37Rv		MIC bound		≤12.5 µg/mL
O=c1ccc2c(-c3ccccc3)cc(N3CCNCC3)nc2[nH]1		H37Rv	12.5 µg/mL	inhibition		7%
CC(CN(C)C)CN1c2ccccc2Sc2ccccc21	BACTEC	H37Rv		MIC bound		>12.5 µg/mL
Cc1c(N2CC3CCCNC3C2)c(F)cc2c(=O)c(C(=O)O)cn([C@@H]3C[C@@H]3F)c12		45 (RFP-resistant)		MIC		0.2 µg/mL
CC(=O)Nc1ccc2c(-c3ccccc3)cc(=O)[nH]c2n1		H37Rv	12.5 µg/mL	inhibition		2%
CC(=O)c1c(O)c(C)c(O)c2c1OC1=Cc3onc(C)c3C(=O)C12C	BACTEC	H37Rv	12.5 µg/mL	inhibition		-24%
CC(C)c1ccc(C2=NOC3(O2)[C@@]2(CN([C@H](C)c4ccccc4)C[C@]34ON=C(c3ccc(C(C)C)cc3)[C@H]4c3ccc(Cl)cc3Cl)ON=C(c3ccc(C(C)C)cc3)[C@H]2c2ccc(Cl)cc2Cl)cc1		H37Rv		MIC		6.24 µM
Cl.Cl.O=C(Nc1ccc(C2=NCCN2)cc1)c1cccc(NC(=S)Nc2ccc(C3=NCCN3)cc2)c1	BACTEC	H37Rv		MIC bound		≤12.5 µg/mL
S=c1oc2ccc(Cl)cc2c(=S)n1-c1cccc(Cl)c1		My 331/88		MIC		2 µM
CC1(C)CC(=O)C2=C(C1)OC1=C(C(=O)CC(C)(C)C1)[Se]2=O		H37Rv		MIC		55.46 µg/mL
O=C(N/N=C(\COc1ccc(Cl)cc1)N=Cc1cccnc1)c1ccncc1		H37Rv(ATCC25584)		MIC		>100 µg/mL
Cc1cn2c(C(=O)NCc3ccc(S(F)(F)(F)(F)F)cc3)c(C)nc2s1	low oxygen	H37Rv		MIC		83 µM
CC(=O)Nc1ccc(OC/C(N)=N\NC(=O)c2ccncc2)cc1		INH-r		MIC		>100 µg/mL
Cc1ccc(-n2c(=O)oc3ccc(Cl)cc3c2=S)cc1		My 331/88		MIC		1 µM
CC1COc2c(N3CCN(C)CC3)c(F)cc3c(=O)c(C(=O)O)cn1c23				MIC		<1 µg/mL
COc1ccc2c(-c3ccccc3)cc(N3CCNCC3)nc2n1		H37Rv		EC50		<12.5 µg/mL
COc1ccc2c(c1)OC/C(=C\c1ccc([N+](=O)[O-])o1)C2=O	BACTEC	H37Rv		MIC bound		>12.5 µg/mL
NC(=O)c1cnccn1				MIC		6.2 µg/mL
NC(=S)N=Nc1c(O)cc(O)c2[nH]c(=O)ccc12	BACTEC	H37Rv		MIC bound		>12.5 µg/mL
Cc1ccccc1OC/C(N)=N\NC(=O)c1ccncc1		INH-r		MIC		100 µg/mL
C[C@H](c1ccccc1)N1C[C@@]2(ON=C(c3ccccc3)[C@H]2c2ccc(Cl)cc2Cl)C2(ON=C(c3ccccc3)O2)[C@]2(C1)ON=C(c1ccccc1)[C@H]2c1ccc(Cl)cc1Cl		H37Rv		MIC		1.78 µM
CCc1nc2ccc(Cl)cn2c1C(=O)NCc1cccc(S(F)(F)(F)(F)F)c1	low oxygen	H37Rv		MIC		200 µM
CC(=O)NNC(=O)c1ccncc1		H37Rv		MIC		400 µg/mL
C[C@H](c1ccccc1)N1C/C(=C/c2ccc(Cl)cc2Cl)[C@]2(ON=C(c3ccccc3)O2)C2(C1)ON=C(c1ccccc1)[C@H]2c1ccc(Cl)cc1Cl		MDR-TB		MIC		1.03 µM
O=C(CC(=O)Nc1ccccc1)Nc1ccccc1				MIC		37 µM
NC[C@H]1O[C@H](O[C@H]2[C@H](O)[C@@H](O[C@H]3O[C@H](CO)[C@@H](O)[C@H](N)[C@H]3O)[C@H](N)C[C@@H]2N)[C@H](O)[C@@H](O)[C@@H]1O				MIC		6 µg/mL
Cc1c(N2C[C@@H](N)C3(CC3)C2)c(F)cc2c(=O)c(C(=O)O)cn([C@@H]3C[C@@H]3F)c12		68 (RFP-susceptible)		MIC		0.05 µg/mL
C[C@H](c1ccccc1)N1C/C(=C\c2cccc3ccccc23)C(=O)/C(=C/c2cccc3ccccc23)C1		H37Rv		MIC		13.03 µM
CC(=O)Nc1ccc(/C=N/NC(N)=S)cc1F	resazurin	H37Rv		MIC90	Isoniazid-resistant	<0.1 µg/mL
Cc1cc(O)c2c(c1O)C(=O)c1c(O)ccc(O)c1C2=O	BACTEC	H37Rv	12.5 µg/mL	inhibition		5%
Nc1cc(-c2ccccc2)c2ccc(=O)[nH]c2n1		H37Rv		EC50		>12.5 µg/mL
Cn1ccn(CCCCCCn2ccn(C)c2=S)c1=S	BACTEC	H37Rv	12.5 µg/mL	inhibition		0%
Cc1ccc2nc(C)c(C(=O)NCc3ccc(C(F)(F)F)cc3)n2c1	low oxygen	H37Rv		EC50		0.39 µM
CC(=O)NN1C(=O)Cc2ccccc2C1C(N)=O	BACTEC	H37Rv	12.5 µg/mL	inhibition		2%
C[C@H](c1ccccc1)N1C/C(=C\c2ccccc2Br)C(=O)/C(=C/c2ccccc2Br)C1		H37Rv		MIC		23.26 µM
COc1cc(C=C/C(=N\NC(=O)c2ccccc2)c2sc(Nc3ccc(Cl)c(Cl)c3)nc2C)ccc1O	resazurin	H37Rv	6.25 µg/mL	inhibition		44%
CCCCCCCCCCCCN1c2ccccc2Sc2ccccc21	broth dilution	H37Ra		MIC		>64 µg/mL
O=C(Cc1c[nH]c2ccccc12)N=Nc1c(O)[nH]c2ccccc12	BACTEC	H37Rv		MIC bound		>12.5 µg/mL
C[C@H](c1ccccc1)N1C/C(=C\c2cccc3ccccc23)[C@@]2(ON=C(c3ccc(Cl)cc3)O2)[C@@]2(C1)ON=C(c1ccc(Cl)cc1)[C@@H]2c1cccc2ccccc12		H37Rv		MIC		0.99 µM

For reference, 9 entries again:

compound,method,strain,dose,measure,mutations,value
O=[N+]([O-])c1ccc(-n2cnc([N+](=O)[O-])n2)cc1,,H37Rv,,MIC,,>6.25 µg/mL
O=c1oc2ccc(Cl)cc2c(=O)n1-c1ccc(Cl)c(Cl)c1,,My 331/88,,MIC,,4 µM
O=C1C(Nc2ccccc2)=CC(c2ccccc2)N1c1ccccc1,BACTEC,H37Rv,,MIC bound,,>12.5 µg/mL
C[C@H](c1ccccc1)N1C/C(=C\c2cccc3ccccc23)C(=O)/C(=C/c2cccc3ccccc23)C1,,H37Rv,,MIC,,13.03 µM
CC1(C)[C@H]2CC[C@]1(C)[C@H](OC(=O)/C=C/C=C/c1ccc3c(c1)OCO3)C2,,H37Ra,,MIC,,25 µg/mL
c1ccc(CN[C@]23C4C5CC6C7C5C2C7[C@@](NCc2ccccc2)(C64)N3Cc2ccccc2)cc1,resazurin,H37Rv,,MIC bound,,>6.25 µg/mL
CC(=O)NNC(=O)c1ccncc1,,H37Rv,,MIC,,400 µg/mL
NC(=O)c1cnccn1,,,,MIC,,6.2 µg/mL
Nc1ccc(C(=O)O)c(O)c1,,,,MIC,,1.5 µg/mL